Measurements from article PMC10948575, “Characterization of the ADP-β-D-manno-heptose biosynthetic enzymes from two pathogenic Vibrio strains” (Applied Microbiology and Biotechnology, 2024).

The chains behind the UniProt entries cited, without tags or fusion partners.
UniProt Q87MG7, whole entry: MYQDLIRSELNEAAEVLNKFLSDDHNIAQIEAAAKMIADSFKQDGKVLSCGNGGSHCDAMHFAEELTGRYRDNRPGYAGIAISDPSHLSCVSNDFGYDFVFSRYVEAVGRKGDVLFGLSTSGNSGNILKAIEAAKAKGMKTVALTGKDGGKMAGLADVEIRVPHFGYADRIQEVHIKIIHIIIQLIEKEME

Key:
GmhBVP = molecular target: T1, GmhBVP (Vibrio parahaemolyticus, UniProt Q87RR9); test: HPLC of coupled one-pot reaction with GmhA and HldE; assay type: biochemical; details: HBP formed in situ from 0.2 mM S7P and 2 mM ATP, 2 mM MgCl2, pH 8.0, 30 °C, 2 h
T1 construct: gene VP0708

GmhAVP = molecular target: T2, GmhAVP (Vibrio parahaemolyticus, UniProt Q87MG7); test: HPLC of coupled one-pot reaction with GmhB and HldE; assay type: biochemical; details: 0.2 mM S7P, 2 mM ATP, 2 mM MgCl2, 2 mM KCl, pH 8.0, 30 °C, 2 h; also with E. coli GmhB + HldE
T2 construct: gene gmhA

SMILES | HPLC of coupled one-pot reaction with GmhA and HldE (GmhBVP) | HPLC of coupled one-pot reaction with GmhB and HldE (GmhAVP)
O=P(O)(O)OC[C@@H](O)[C@H]1O[C@@H](OP(=O)(O)O)[C@@H](O)[C@@H](O)[C@@H]1O [HBP] | GmhBVC and GmhBVP are HBP phosphatases | 
O=P(O)(O)OC[C@@H](O)[C@H]1OC(O)(CO)[C@@H](O)[C@@H]1O (some centres unmarked) [S7P] |  | these results confirmed that GmhAVC and GmhAVP are S7P isomerases
